In the test the test system is Venezuelan equine encephalitis virus. The test is described as follows: Anti-viral activity against VEEV infected in human NHDF cells assessed as reduction in viral titer incubated with cells for 1 hr followed by viral infection for 2 hrs and subsequent replacement of fresh media with compound measured after 24 hrs post-infection by extracting viral supernatant from …. Particulars: dose 0.01-100 µM, time 25.0 hrs.

Molecules are shown by their SMILES.

For `O=C(N1CCC2(CC1)CC(CN1CCCCS1(=O)=O)CCO2)C1(c2ccccc2)CCCC1` (stereo unspecified), the Activity result is “Dose-dependent-effect”.
